From US6673355B1 (priority 1995, dated 2004)

System: CD1 mice
Experiment: Diarrhea induction after IP administration to CD1 mice
Format: in vivo, mouse
Details: IP administration of 50-100 nmol peptide

## DKLTTREIEQVELLKRIKD KLT
  # responders/total # tested: 0/11
  % Diarrhea: 0%
